Values of other authors in publication PMC6832962, “Identification of Crucial Residues in α-Conotoxin EI Inhibiting Muscle Nicotinic Acetylcholine Receptor” (2019).

System: α3β2 nAChR

GIC
IC50: 1.1 nM
